Reference: paper PMC5754140, “Two classes of protective antibodies against Pseudorabies virus variant glycoprotein B: Implications for vaccine design” (PLoS Pathogens, 2017)

Legend:
[1] = target: T1, PRV gB ectodomain, soluble (residues A59 to N752, strain HN1201) (Pseudorabies virus (Suid …)); experiment: BLI
[2] = target: T1, PRV gB ectodomain, soluble (residues …); experiment: negative stain EM 3D reconstruction

Row | Binder | fold decrease of affinity against wild type 1H1 [1] | stoichiometry N [2]
1 | 1H1_NL Fab (N103 in HCDR3 replaced with alanine) (Fab, V domains shown) VH: QVKLQESGAELVKPGASAKAACEASGYTFTSYWIHWVKQRPGQGLDWIGEINTSSGRTNYNERFKNKATLTVDKTSSTAYIQLSSLTSEDSAVYYCAREGFGAQSLDYWGQGTSLTVSS VL: DIILTQSPAIMSASLGERVTLTCTASSSVSSSYLHWYQQKPGSSPKLWIYSTYNLAGAVPPRFSGSGSGTSYSLTISSMEAEDAATYYCQQYHRSPWTFGGGTKLEIK | ~1000 fold | –
2 | 1H1_SL Fab (S105 in HCDR3 replaced with alanine) (Fab, V domains shown) VH: QVKLQESGAELVKPGASAKAACEASGYTFTSYWIHWVKQRPGQGLDWIGEINTSSGRTNYNERFKNKATLTVDKTSSTAYIQLSSLTSEDSAVYYCAREGFGNQALDYWGQGTSLTVSS VL: DIILTQSPAIMSASLGERVTLTCTASSSVSSSYLHWYQQKPGSSPKLWIYSTYNLAGAVPPRFSGSGSGTSYSLTISSMEAEDAATYYCQQYHRSPWTFGGGTKLEIK | ~1000 fold | –
3 | 1H1 Fab (wild type) (Fab, V domains shown) VH: QVKLQESGAELVKPGASAKAACEASGYTFTSYWIHWVKQRPGQGLDWIGEINTSSGRTNYNERFKNKATLTVDKTSSTAYIQLSSLTSEDSAVYYCAREGFGNQSLDYWGQGTSLTVSS VL: DIILTQSPAIMSASLGERVTLTCTASSSVSSSYLHWYQQKPGSSPKLWIYSTYNLAGAVPPRFSGSGSGTSYSLTISSMEAEDAATYYCQQYHRSPWTFGGGTKLEIK | – | 3 Fab per gB trimer
